Measurements taken from patent US20090186842, “Methods and compositions for inhibition of viral replication” (published 2009).

Columns and labels:
[1] = biological target: T1, TIA-1b (rTIA-1) (Mus musculus) (UniProt P52912); test: EMSA; details: purified recombinant protein, protein details: C-terminal His6, label: 32P
T1 sequence (looked up, limits assumed): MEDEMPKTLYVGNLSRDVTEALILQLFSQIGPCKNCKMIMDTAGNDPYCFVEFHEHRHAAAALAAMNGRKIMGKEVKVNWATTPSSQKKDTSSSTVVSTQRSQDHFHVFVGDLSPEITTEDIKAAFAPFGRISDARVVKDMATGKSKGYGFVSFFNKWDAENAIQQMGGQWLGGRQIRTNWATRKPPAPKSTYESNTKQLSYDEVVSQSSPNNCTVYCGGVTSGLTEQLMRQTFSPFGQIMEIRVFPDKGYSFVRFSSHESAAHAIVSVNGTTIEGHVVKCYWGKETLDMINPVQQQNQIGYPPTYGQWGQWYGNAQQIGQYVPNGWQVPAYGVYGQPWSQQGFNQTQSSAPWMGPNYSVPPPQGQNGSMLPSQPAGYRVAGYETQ

[2] = biological target: T2, TIARa (rTIAR) (Mus musculus) (UniProt P70318); test: EMSA; details: purified recombinant protein; protein details: C-terminal His6; label: 32P; variant of WNV3'(-)SL RNA
T2 sequence (looked up, limits assumed): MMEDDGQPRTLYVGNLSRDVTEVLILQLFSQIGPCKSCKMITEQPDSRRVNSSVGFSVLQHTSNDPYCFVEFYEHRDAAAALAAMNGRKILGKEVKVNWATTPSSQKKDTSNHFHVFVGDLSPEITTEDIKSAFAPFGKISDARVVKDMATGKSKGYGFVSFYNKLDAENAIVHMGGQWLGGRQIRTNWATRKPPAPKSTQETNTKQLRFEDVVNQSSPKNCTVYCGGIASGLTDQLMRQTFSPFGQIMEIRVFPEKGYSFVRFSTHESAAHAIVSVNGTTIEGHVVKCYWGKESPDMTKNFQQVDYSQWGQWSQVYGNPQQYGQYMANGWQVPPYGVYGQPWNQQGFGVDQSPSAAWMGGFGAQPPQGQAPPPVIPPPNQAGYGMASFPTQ

[3] = test system: TIA-1 (p42); test: binding assay; details: UV crosslinking then anti-TIA-1 immunoprecipitation; weaker band than TIAR; protein in an extract; label: 32P
[4] = test system: TIAR (p42); test: binding assay; details: UV crosslinking then anti-TIAR immunoprecipitation; also RNA affinity column and MS identification; protein in an extract; label: 32P

Sequence	binding result ([1]; variant of WNV3'(-)SL RNA)	binding result [2]	binding result ([1]; 50-900 nM protein, 0.2 nM RNA, 1 mM MgCl2, 30 mM KCl, RT)	binding result [3]	binding result [4]
CAGCUCGCACCGUGUUAAUUGUUGAAAAAAAAAACAAACACUACUAAGUUUGUCAGCUCACACAGGCGAACUACU [L2->As]	binds	binds			
CAGCUCGCACCGUGUAAAACGUUGAAAAAAAAAACAAACACUACUAAGUUUGUCAGCUCACACAGGCGAACUACU [L1+L2->As]	binds	binds			
CAGCUCGCACCGUGUUAAUUGUUGUUAAUCCUCACAAACACUACUAAGUUUGUCAGCUCACACAGGCGAACUACU [WNV3'(-)SL RNA]			binds		
CAGCUCGCACCGUGUAAGUUGUUAACAAACACUACUAAGUUUGUCAGCUCACACAGGCGAACUACU [delta L1, delta L2 with U25, U26, A27 restored]	binds	binds			
CAGCUCGCACCGUGUUAAUUGUUGUUAAUCCUCACAAACCCCCCCCCGUUUGUCAGCUCACACAGGCGAACUACU [L3->Cs]	binds	binds			
CAGCUCGCACCGUGUUAAUUGUUGUUAAUCCUCACAAACAAAAAAAAGUUUGUCAGCUCACACAGGCGAACUACU [L3->As]	binds	binds			
CAGCUCGCACCGUGUAAGUUGUUAAACAAACACUACUAAGUUUGUCAGCUCACACAGGCGAACUACU [delta L1, delta L2 with U25, U26, A27, A28 restored]	binds	binds			
CAGCUCGCACCGUGUAAAACGUUGUUAAUCCUCACAAACACUACUAAGUUUGUCAGCUCACACAGGCGAACUACU [L1->As]	binds	binds			
CAGCUCGCACCGUGUUAAUUGUUGUUAAUCCUCACAAACACUACGUUUGUCAGCUCACACAGGCGAACUACU [delta L3 (UAA deleted)]	binds	binds			
CCCCAGCUCGCACCGUGUUAAUUGUUGUUAAUCCUCACAAACACUACUAAGUUUGUCAGCUCACACAGGCGAACUACU [WNV 3'(-)SL RNA with 5' CCC]				binds	binds

Construct, isoform or probe ends are uncertain for at least one entry. For some of these results: At least one result comes from cells or an extract, where the contact may be indirect. For some of these results: Where a protein sequence is shown, tags need not be part of it.
